Key:
[1] = target: SARS-CoV Spike (SARS-CoV) (UniProt P59594); experiment: SPR
SARS-CoV-2 (SARS-CoV-2) = SARS-CoV-2 (SARS-CoV-2) (UniProt P0DTC2); experiment: ELISA
SARS-CoV-2 Spike = experiment: SPR
BM-4831 = experiment: ELISA
BtKY72 = experiment: ELISA
GX-Pangolin = experiment: ELISA
RaTG13 = experiment: ELISA
Rf1 = experiment: ELISA
RmYN02 = experiment: ELISA
Rs4081 = experiment: ELISA
SARS-CoV = experiment: ELISA
SHC014 = experiment: ELISA
WIV1 = experiment: ELISA
Yunnan2011 = experiment: ELISA

Row | Substance | Kd [1] | EC50 (SARS-CoV-2 (SARS-CoV-2)) | also measured
1 | REGN10985 | 4650 pM | 1 ng/mL | –
2 | CR3022 | 0.759 pM | – | Kd (SARS-CoV-2 Spike): 1790 pM; EC50 (BM-4831): > 10000 ng/mL; EC50 (BtKY72): 5 ng/mL; EC50 (GX-Pangolin): 30 ng/mL; EC50 (RaTG13): 262 ng/mL; EC50 (Rf1): > 10000 ng/mL; EC50 (RmYN02): > 10000 ng/mL; EC50 (Rs4081): 826 ng/mL; EC50 (SARS-CoV): 9 ng/mL; EC50 (SHC014): 6 ng/mL; EC50 (WIV1): 4 ng/mL; EC50 (Yunnan2011): 307 ng/mL
3 | S2X259 | 3.65 pM | 3 ng/mL | –
4 | DH1047 | 1.11 pM | 4 ng/mL | –
5 | ADG-2 | 1.41 pM | 3 ng/mL | –
6 | COVA1-16 | – | 4 ng/mL | –
7 | S2H97 | 70.6 pM | 3 ng/mL | –
